Test results from US20250376472A1, “3-(PHENYLSULFONYL)-[1,2,3]TRIAZOLO[1,5A]QUINAZOLIN-5(4H)-ONE DERIVATIVES” (priority 2022, published 2025).

The chains behind the UniProt entries cited, without tags or fusion partners.
UniProt P0A0I7, whole entry: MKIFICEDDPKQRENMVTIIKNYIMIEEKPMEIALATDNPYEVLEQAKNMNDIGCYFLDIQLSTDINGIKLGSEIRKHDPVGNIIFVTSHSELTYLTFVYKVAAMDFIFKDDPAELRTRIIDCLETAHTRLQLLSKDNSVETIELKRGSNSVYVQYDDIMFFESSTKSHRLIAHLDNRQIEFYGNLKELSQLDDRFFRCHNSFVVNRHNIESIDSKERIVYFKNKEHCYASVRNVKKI

Molecular target: AgrA (Staphylococcus aureus, UniProt P0A0I7)
Settings: for Ratio IC50 (in presence of HSA)/IC50 (in absence of HSA): 40 mg/mL HSA versus no HSA; for IC50 at 40 mg/mL HSA: LB medium supplemented with human serum albumin 40 mg/mL; for IC50 without HSA: LB medium, no human serum albumin, 18 hours incubation

| Compound | Ratio IC50 (in presence of HSA)/IC50 (in absence of HSA) | IC50 at 40 mg/mL HSA | IC50 without HSA |
| --- | --- | --- | --- |
| Cc1ccc(S(=O)(=O)c2nnn3c2[nH]c(=O)c2ccc(N4CCN(C(C)(C)C(=O)N5CCOCC5)CC4)cc23)c(C)c1 | +++ (+++: ratio ≤ 25) | +++ (+++: IC50 ≤ 10 μg/mL) | +++ (+++: IC50 ≤ 1 μg/mL) |
| COCCNC(=O)C(C)(C)N1CCN(c2ccc3c(=O)[nH]c4c(S(=O)(=O)c5ccc(C)cc5C)nnn4c3c2)CC1 | +++ (+++: ratio ≤ 25) | +++ (+++: IC50 ≤ 10 μg/mL) | +++ (+++: IC50 ≤ 1 μg/mL) |
| Cc1ccc(S(=O)(=O)c2nnn3c2[nH]c(=O)c2ccc(N4CCN(CCC(=O)N5CCCCC5)CC4)cc23)c(C)c1 | +++ (+++: ratio ≤ 25) | ++ (++: 10 μg/mL < IC50 ≤ 50 μg/mL) | ++ (++: 1 μg/mL < IC50 ≤ 5 μg/mL) |
